{"source": "paper PMC6838151", "about": "(Scientific Reports, 2019)", "system": "hASCs", "test": "Confocal imaging of mitochondrial network (MitoRed) and F-actin (Phalloidin Atto 590) in hASCs", "format": "cell-based, human", "details": "20 µM, 24 h", "description": "The mitochondrial network was visualized using MitoRed staining. After 24-hours treatment with either Ke, KeP or KeOP, the media were removed and replaced with MitoRed dye in 1:1000 dilution in fresh complete media. Cells were incubated for 30 minutes at 37 °C, then washed with Phosphate Buffered Saline (PBS), fixed with 4% paraformaldehyde (PFA) solution, washed three times and nuclei were counterstained with diamidino-2-phenylindole (DAPI).\nIn order to perform F-actin imaging, cells were fixed with 4% PFA solution, washed with PBS and then permeabilized using 0.5% TX-100 (incubation 15 minutes, room temperature). The cells were rinsed and incubated with Phalloidin-Atto 590 solution in PBS (dilution 1:1000) at 37 °C for 30 minutes in the dark. After washing, the cells were counterstained with DAPI.\nCells were observed and images were taken using confocal microscopy performed with a Leica TCS-SP8 laser scanning confocal microscope. Data were further processed with the use of ImageJ software."}
{"smiles": "O=P(CN1CCN(c2ccc(OC[C@H]3CO[C@](Cn4ccnc4)(c4ccc(Cl)cc4Cl)O3)cc2)CC1)(c1ccccc1)c1ccccc1", "note": "(racemic) [KeOP, Ph2P(O)CH2-Ke]", "values": [{"measurement": "growth pattern (phalloidin staining)", "value": "multilayer growth pattern"}]}
